Assay results as given in US11000571B2 (priority 2016, dated 2021).

Assays:
[1] = test system: intracerebral hemorrhage (“ICH”) mouse model; assay: Intracerebral hemorrhage (ICH) mouse model, 28-point neurological scale; type: in vivo, C57BL/6J mice
[2] = test system: MMP-9 (metalloproteinase-9); assay: Serum MMP-9 stroke biomarker by ELISA after ICH; type: in vivo, C57BL/6J mice; settings: 32 mg/kg dose; 24 hours post-ICH; relative to saline

(Aib)HGGGWGQ(Aib)HGGGWGQ
28-point scale score ([1]; 16 mg/kg IP at 1, 4, 24, 48 h after ICH, scored 6, 24, 48, 72 h post-ICH, relative to saline): effective at each time point tested | sensory response component of 28-point scale ([1]; 16 mg/kg, 6 hrs): improved at statistically significant levels | 28-point scale score ([1]; 32 mg/kg IP at 1, 4, 24, 48 h after ICH, scored 6, 24, 48 h post-ICH, relative to saline): effective at each time point tested | 28-point scale score ([1]; 32 mg/kg IP, 72 hours post-ICH, relative to untreated animals): did not result in statistically significant difference | sensory response component of 28-point scale ([1]; low dose (16 mg/kg), 24 hours): improved at statistically significant levels | behavioral and neurological deficits following induction of ICH (overall) ([1]; overall conclusion, 16 and 32 mg/kg): efficacious at diminishing the behavioral and neurological deficits | MMP9 serum levels [2]: diminished
